Measurements taken from BindingDB's records for doi:10.1016/j.jmb.2005.09.095 (Georgia State University, 2005).

What was measured:
[1] = molecular target: T1, Dimer of Gag-Pol polyprotein [501-599,Q508K,L534I,L564I,C568A,C596A,G574S] (Human immunodeficiency virus 1, UniProt P03367, C568A/C596A/G574S/L534I/L564I/Q508K); test: Protease Inhibition Assay; conditions: pH 5; 22 °C
T1 construct: 501-599
Excerpt: (§1) The Ki values were obtained from the IC50 values estimated from an inhibitor dose-response curve with the spectroscopic assay and the chromogenic substrate.

[2] = molecular target: T2, Dimer of Gag-Pol polyprotein [501-599,Q508K,L534I,L564I,C568A,C596A] (Human immunodeficiency virus 1, UniProt P03367, C568A/C596A/L534I/L564I/Q508K); test: Protease Inhibition Assay; conditions: pH 5; 22 °C
T2 construct: 501-599
Excerpt: as §1

With `CCCC[C@@H](CN[C@@H](CCCC)C(=O)N[C@@H](CCC(N)=O)C(=O)N[C@@H](CCCNC(=N)N)C(N)=O)NC(=O)[C@@H](NC(=O)[C@@H](NC(C)=O)[C@@H](C)O)[C@@H](C)CC` [N-1465] the pKi [1] was 5.48 and the pKi [2] was 5.66.

pKi: −log10 of the molar value.
